A mixed list of measured activities; the numbers were collected in NIAID ChemDB.

Common to all: tests in culture; organism: HIV-1; measure: EC50

Rows are shuffled and stem from different studies.

smiles,cell line,changes,method,strain or isolate,setting,value
CCCc1c(OC2CCCC2)c2cc(F)ccc2[nH]c1=O,MT-4,RT-Y181C,,Nevirapine-resistant (RT Y181C),,0.72 µM
COc1nc2c(cc1Cc1cccc(Cl)c1F)c(=O)c(C(=O)O)cn2[C@H](C)C(C)(C)C,HeLa,,luciferase,NL4-3,pseudotyped,>0.1 µM
CC(C)C1=C2[C@H]3CC[C@@H]4[C@@]5(C)CC[C@H](OC(=O)C6C[C@@H](C(=O)O)C6(C)C)C(C)(C)[C@@H]5CC[C@@]4(C)[C@]3(C)CC[C@@]2(NC(=O)C(C)(C)NC(=O)c2cc(C(C)C)[nH]n2)CC1=O,MT-4,,p24,NL4-3,,<0.005 µM
CC(C)(C)[C@@H](CO)n1cc(C(=O)O)c(=O)c2cc(NCc3ccc(F)cc3)c(F)cc21,HeLa,,luciferase,NL4-3,pseudotyped,0.01–0.1 µM
CC(C)[C@H](NC(=O)CCS(=O)(=O)c1ccncc1)C(=O)N[C@@H](Cc1ccccc1)[C@@H](O)[C@H](O)[C@H](Cc1ccccc1)NC(=O)[C@@H](NC(=O)CCS(=O)(=O)c1ccncc1)C(C)C,PBLC,,p24,D34,,1.2 µM
CCc1c(C)c2cc3[nH]c(cc4nc(c(C)c5nc(cc1[nH]2)C(C)=C5)C(CCC(=O)O)=C4C)c(C)c3CC,MT-4,,cytopathic effect,LAV,,<10 µg/mL
CCOC(=O)c1c(C)n([C@H]2C[C@@H]2c2ccccc2)c2ccc(O)cc12,MT-4,,MTT,NL4-3,,5.91 µM
COc1cccc(N2CCN(c3cc4c(cc3N)c(=O)c(C(=O)O)cn4C3CC3)CC2)c1,MT-4,,cytopathic effect / MTT,IIIB,,>4.21 µM
CC(C)OC(=O)c1cc(NC(=O)C(C)(C)C)c(F)cc1Cl,CEM,,cytopathic effect / XTT,IIIB,,0.0427 µg/mL
CC(C)C1=C2[C@H]3CC[C@@H]4[C@@]5(C)CC[C@H](OC(=O)C6C[C@@H](C(=O)O)C6(C)C)C(C)(C)[C@@H]5CC[C@@]4(C)[C@]3(C)CC[C@@]2(NC(=O)C(C)(C)NC(=O)c2ccc(CN3CCS(=O)(=O)CC3)cc2)CC1=O,MT-4,V7A,p24,NL4-3,,>0.05 µM
CC(C)Cc1c(OCC2CCC2)c2cnccc2[nH]c1=O,MT-4,,,,,0.07 µM
CC(C)C1=C2[C@H]3CC[C@@H]4[C@@]5(C)CC[C@H](OC(=O)C6C[C@@H](C(=O)O)C6(C)C)C(C)(C)[C@@H]5CC[C@@]4(C)[C@]3(C)CC[C@@]2(NC(=O)C(C)(C)NC(=O)c2csc(N)n2)CC1=O,MT-4,V7A,p24,NL4-3,,>0.05 µM
CCOC(=O)c1cn([C@H](CO)C(C)C)c2nc(OCC)c(NCc3ccc(F)cc3)cc2c1=O,HeLa,,luciferase,NL4-3,pseudotyped,>0.1 µM
CCCCCCNC(=O)P(=O)(O)OC[C@H]1O[C@@H](n2cc(C)c(=O)[nH]c2=O)C[C@@H]1N=[N+]=[N-],MT-4,,p24,GKV-4046,,0.11 µM
C/C(=C(/CCO)SS/C(CCO)=C(\C)N(C=O)Cc1cnc(C)nc1N)N(C=O)Cc1cnc(C)nc1N,CEM-SS,,,,,>100 µM
C=C1C[C@@]23CC[C@@H]4C(C)(C)[C@@H](O)CC[C@@]4(C)[C@@H]2C[C@@H]1[C@@H](O)C3=O,MT-4,,MTT,,,>25 µg/mL
N=C1Sc2ccccc2C2=NCCCN12,PBMC,,MTS,92UG029,,1.18 µM
Cc1cn([C@H]2C[C@H](N=[N+]=[N-])[C@@H](COP(=O)(O)CCl)O2)c(=O)[nH]c1=O,MT-4,,p24,GKV-4046,,1.3 µM
Nc1cc2c(=O)c(C(=O)O)cn(C3CC3)c2cc1N1CCN(c2ccc3ccccc3n2)CC1,MT-4,,cytopathic effect / MTT,IIIB,,>0.2 µM
CCOC(=O)[C@H](C)NC(O)(Oc1ccccc1)Oc1nc(N(C)C)nc(C(C)c2c(F)cccc2F)c1C,MT-4,,MTT,,,0.006 µM
Cc1ccc(C)n1-c1ccc(C(=O)O)c(O)c1,PBMC/5.25M7,,luciferase / cell fusion,93IN101 R5 CLADE C,,13.86 µM
Cc1occc1C(=O)Nc1ccc(Cl)c(/C=N/N2CCCC2)c1,CEM,RT-L100I,syncytia,R82150-resistant (RT L100I),,<2 µg/mL
CC(C)c1c(OCC2CCC2)c2cnccc2[nH]c1=O,MT-4,RT-Y181C,,Nevirapine-resistant (RT Y181C),,0.64 µM
C/C=C(\C)C(=O)OC[C@]1(C)C(=O)CC[C@@]2(C)[C@@H]3CC[C@H]4C[C@@]3(CC[C@@H]21)C[C@@]4(O)CO,MT-4,,MTT,,,>25 µg/mL
C=CCN(C(=O)OCc1ccc([N+](=O)[O-])cc1)C1CCN(C[C@H]2CN(C(=O)C3CCCC3)C[C@]2(O)c2ccccc2)CC1,PBMC,,p24,93IN109 R5 CLADE C,,0.0019 µM
C=C1C[C@@]23CC[C@@H]4C(C)(C)[C@H](O)C(=O)C[C@@]4(C)[C@@H]2C[C@@H]1CC3=O,MT-4,,MTT,,,>25 µg/mL
CC(C)[C@@H](CO)n1cc(C(=O)O)c(=O)c2cc(F)c(NCc3ccc(F)cc3)nc21,HeLa,,luciferase,NL4-3,pseudotyped,>0.1 µM
CC(C)[C@H](NC(=O)[C@H](Cc1cccc2ccccc12)CS(=O)(=O)C(C)(C)C)C(=O)NCCCCNC(=O)[C@@H](NC(=O)[C@H](Cc1cccc2ccccc12)CS(=O)(=O)C(C)(C)C)C(C)C,PBLC,,p24,D34,,3 µM
CCC1=C(C)c2cc3nc(cc4cc(C)c(cc5[nH]c(cc1n2)c(C)c5CC)[nH]4)C(CCC(=O)O)=C3C,MT-4,,cytopathic effect,LAV,,<10 µg/mL
C=C(C)[C@@H]1CC[C@]2(C(=O)NCCCCCCCC(=O)N[C@@H](CC(C)C)[C@@H](O)CC(=O)O)CC[C@]3(C)[C@H](CC[C@@H]4[C@@]5(C)CC[C@H](O)C(C)(C)[C@@H]5CC[C@]43C)[C@@H]12,H9,,p24 / RT activity,IIIB,,0.03 µM
CCCn1cc(C(=O)OCc2ccccc2)c(=O)c2c(N)nc(SC)nc21,HeLa,,luciferase,NL4-3,pseudotyped,>0.1 µM
CC1=C(CCC(=O)O)c2cc3nc(cc4[nH]c(cc5[nH]c(cc1n2)c(C)c5CCC(=O)O)c(CCC(=O)O)c4C)C(CCC(=O)O)=C3C,MT-4,,cytopathic effect,LAV,,<10 µg/mL
CC(C)C1=C2[C@H]3CC[C@@H]4[C@@]5(C)CC[C@H](OC(=O)C6C[C@@H](C(=O)O)C6(C)C)C(C)(C)[C@@H]5CC[C@@]4(C)[C@]3(C)CC[C@@]2(NC(=O)C(C)(C)NC(=O)c2cnn3cccnc23)CC1=O,MT-4,V7A,p24,NL4-3,,0.01001–0.05 µM
CCCCCCOP(=O)(N[C@H](C(=O)OC)C(C)C)OC[C@H]1O[C@@H](n2cc(C)c(=O)[nH]c2=O)C[C@@H]1N=[N+]=[N-],C8166,,ELISA,RF,,10 µM
C=Cc1c(C)c2cc3nc(c(CC(=O)O)c4nc(cc5[nH]c(cc1[nH]2)c(C)c5CC)C(C)=C4C(=O)O)C(CCC(=O)O)=C3C,MT-4,,cytopathic effect,LAV,,<10 µg/mL
CC1(C)C(=O)CC[C@]2(C)[C@@H]1CC[C@@]13CC[C@@H](C[C@H]12)C([C@@H](O)CO)C3,MT-4,,MTT,,,6.6 µg/mL
CC(C)[C@H](NC(=O)[C@H](Cc1cccc2ccccc12)CS(=O)(=O)C(C)(C)C)C(=O)N[C@@H](Cc1ccccc1)[C@@H](O)[C@H](O)[C@H](Cc1ccccc1)NC(=O)[C@@H](NC(=O)[C@H](Cc1cccc2ccccc12)CS(=O)(=O)C(C)(C)C)C(C)C,PBLC,,p24,D34,,0.003 µM
CC(C)[C@H]1COc2nc(Cc3cccc(Cl)c3F)cc3c(=O)c(C(=O)O)cn1c23,HeLa,,luciferase,NL4-3,pseudotyped,>0.1 µM
CC(=O)OCC1=C[C@@H]2C(=O)[C@]3(C=C(C)[C@H](OC(C)=O)[C@@]3(O)[C@@H]1OC(C)=O)[C@H](C)C[C@@H]1[C@H]2C1(C)C,MT-4,,cytopathic effect / MTT,IIIB,,0.1 µM
CCOP(=O)(N[C@@H](C)C(=O)OCc1ccccc1)OC[C@H]1O[C@@H](n2cc(C)c(=O)[nH]c2=O)C[C@@H]1N=[N+]=[N-],C8166,,ELISA,RF,,3 µM
C/C=C(\C)C(=O)OC[C@]1(C)C(=O)CC[C@@]2(C)[C@@H]3C[C@@H]4CC[C@@]3(CC[C@@H]21)CC4[C@@H](O)CO,MT-4,,MTT,,,6.4 µg/mL
CCC[C@H](NC(=O)[C@H](Cc1cccc2ccccc12)CS(=O)(=O)C(C)(C)C)C(=O)N[C@@H](Cc1ccccc1)[C@@H](O)[C@H](O)[C@H](Cc1ccccc1)NC(=O)[C@H](CCC)NC(=O)[C@H](Cc1cccc2ccccc12)CS(=O)(=O)C(C)(C)C,PBLC,,p24,D34,,0.004 µM
Nc1cc2c(=O)c(C(=O)O)cn(N)c2cc1N1CCN(c2ccccn2)CC1,MT-4,,cytopathic effect / MTT,IIIB,,2.23 µM
CC1=C(C(=O)Nc2cc(C(=O)OC(C)C)c(Cl)cc2F)SCCO1,MT-2,,cytopathic effect / XTT,IIIB,,0.0032 µg/mL
CC(C)C1=C2[C@H]3CC[C@@H]4[C@@]5(C)CC[C@H](OC(=O)C6C[C@@H](C(=O)O)C6(C)C)C(C)(C)[C@@H]5CC[C@@]4(C)[C@]3(C)CC[C@@]2(NC(=O)C(C)(C)NC(=O)c2ccc3nc(-c4cnccn4)[nH]c3c2)CC1=O,MT-4,,p24,NL4-3,,<0.005 µM
CCCN(C)c1nc(C(C)c2c(F)cccc2F)c(C)c(=O)[nH]1,MT-4,,MTT,NL4-3,,0.0019 µM
CC(C)[C@H](NC(=O)C(Cc1ccccc1)CS(=O)(=O)CCO)C(=O)N[C@@H](Cc1ccccc1)[C@@H](O)[C@H](O)[C@H](Cc1ccccc1)NC(=O)[C@@H](NC(=O)C(Cc1ccccc1)CS(=O)(=O)CCO)C(C)C,PBLC,,p24,D34,,6 µM
COC(=O)[C@@H](NP(=O)(N[C@H](C(=O)OC)C(C)C)OC[C@H]1O[C@@H](n2cc(C)c(=O)[nH]c2=O)C[C@@H]1N=[N+]=[N-])C(C)C,C8166,,ELISA,RF,,0.1 µM
COc1cnc(-n2cnc(C)n2)c2[nH]cc(C(=O)C(=O)N3CCN(C(=O)c4ccccc4)CC3)c12,PM1,,p24 / ELISA,BaL,,0.0017 µM
CC(C)[C@H](NC(=O)[C@H](Cc1ccccc1)CS(=O)(=O)C(C)(C)C)C(=O)N[C@@H](Cc1ccccc1)[C@@H](O)[C@H](O)[C@H](Cc1ccccc1)NC(=O)[C@@H](NC(=O)[C@H](Cc1ccccc1)CS(=O)(=O)C(C)(C)C)C(C)C,PBLC,,p24,D34,,0.023 µM
CCOP(=O)(N[C@@H](C)C(=O)OC)OC[C@H]1O[C@@H](n2cc(C)c(=O)[nH]c2=O)C[C@@H]1N=[N+]=[N-],C8166,,ELISA,RF,,3 µM
CCCc1c(OC#CC2CC2)c2cc(Cl)ccc2[nH]c1=O,MT-4,RT-Y181C,,Nevirapine-resistant (RT Y181C),,0.083 µM
COc1cc2c(cc1OCc1cccc(Cl)c1F)c(=O)c(C(=O)O)cn2[C@H](CO)C(C)(C)C,HeLa,,luciferase,NL4-3,pseudotyped,0.1 µM
Cc1cccnc1C(=O)NC(C)(C)C(=O)N[C@@]12CC[C@]3(C)[C@H](CC[C@@H]4[C@@]5(C)CC[C@H](OC(=O)C6C[C@@H](C(=O)O)C6(C)C)C(C)(C)[C@@H]5CC[C@]43C)C1=C(C(C)C)C(=O)C2,MT-4,,p24,NL4-3,,<0.005 µM
CC1(C)[C@H]2CC[C@@]34CC[C@@H](C[C@H]3[C@]2(C)CC[C@@H]1O)C([C@@H](O)CO)C4,MT-4,,MTT,,,>25 µg/mL
Cc1nnc(-c2ccc(C(=O)NC(C)(C)C(=O)N[C@@]34CC[C@]5(C)[C@H](CC[C@@H]6[C@@]7(C)CC[C@H](OC(=O)C8C[C@@H](C(=O)O)C8(C)C)C(C)(C)[C@@H]7CC[C@]65C)C3=C(C(C)C)C(=O)C4)cc2)o1,MT-4,,p24,NL4-3,,0.00501–0.01 µM
CCCc1c(OC2CCCC2)c2cc(Br)ccc2[nH]c1=O,MT-4,,,,,0.07 µM
CCC1=C(C(=O)Nc2ccc(Cl)c(C(=O)OCC(C)C)c2)SCCO1,CEM,,cytopathic effect / XTT,IIIB,,0.0389 µg/mL
Nc1cc2c(=O)c(C(=O)O)cn(C3CC3)c2cc1N1CCN(c2cnccn2)CC1,MT-4,,cytopathic effect / MTT,IIIB,,4.05 µM
CCN(CC)C(=S)S,CEM-SS,,,,,>100 µM
CCCc1c(OC2CCCC2)c2cc(OC)ccc2[nH]c1=O,MT-4,,,,,0.47 µM
Cc1ccoc1C(=O)Nc1ccc(Cl)c(C(=O)OC(C)C)c1,CEM,,cytopathic effect / XTT,IIIB,,0.0033 µg/mL
Cc1cn([C@H]2C[C@H](N=[N+]=[N-])[C@@H](COP(=O)(O)CCN)O2)c(=O)[nH]c1=O,MT-4,,p24,GKV-4046,,3.2 µM
Cc1sc(-c2ccncc2)c(C2=CCC(C)(C)CC2)c1[C@H](OC(C)(C)C)C(=O)O,MT-4,,luminescence,HXB2,,0.012 µM

ECn is the concentration giving n% inhibition of infection, replication or growth. An empty or dashed field is not shown. a–b is a range or a potency band.